PubChem BioAssay AID624099, ICCB-Longwood, 2012
The deposit covers about 21,000 reagents; below is a part drawn at random. Of all reagents, 497 (2.4%) are marked active. 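Higher z means weaker E2 silencing; only reporter increases were scored, and knock-downs that hurt cell survival may mask genuine repressor factors.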 Reagents against one gene are numbered here. Reagent sequences are not shown.

- Screen: 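Host factors E2 relies on to silence an HPV18 LCR reporter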 (primary screen)
- System: human C33A cervical carcinoma cells (HPV-negative) stably expressing BPV1 E2 and an HPV18 LCR luciferase reporter
- Reagents: siRNA pool against human genes, 40 nM
- Timing: 72 h
- Read-out: 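Per-well luciferase luminescence, z-scored on each plate against the plate mean and SD with control wells left out, then averaged across three replicate plates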
- Reading the numbers: mean z-score and z-score: higher = stronger reporter signal, weaker E2 silencing
- Active means: 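Hit if mean z-score reaches 2 and two or more of three replicate z-scores also reach 2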

What did the screen give for LINC01465 (GeneID 283416)?
mean z-score: 0.18; z-score, replicate A: -0.06; z-score, replicate B: -0.04; z-score, replicate C: 0.63; outcome: inactive

Which result is listed for MRGPRX4 (GeneID 117196)?
mean z-score: -0.2; z-score, replicate A: -0.31; z-score, replicate B: -0.22; z-score, replicate C: -0.07; outcome: inactive

How did the screen score PIP5K1P1 (GeneID 206426)?
mean z-score: -0.69; z-score, replicate A: -0.4; z-score, replicate B: -0.77; z-score, replicate C: -0.91; outcome: inactive

For GPR135 (GeneID 64582), what does the deposit list?
mean z-score: -0.34; z-score, replicate A: -0.49; z-score, replicate B: -0.36; z-score, replicate C: -0.18; outcome: inactive

With PPIG (GeneID 9360), what does the deposit list?
mean z-score: 1.39; z-score, replicate A: 1.54; z-score, replicate B: 1.46; z-score, replicate C: 1.18; outcome: inactive

What is on record for PHACTR1 (GeneID 221692)?
mean z-score: -1.68; z-score, replicate A: -1.75; z-score, replicate B: -1.67; z-score, replicate C: -1.63; outcome: inactive

With INSM2 (GeneID 84684), how do the results read?
mean z-score: -1.39; z-score, replicate A: -0.62; z-score, replicate B: -1.63; z-score, replicate C: -1.93; outcome: inactive

Which result is listed for CPA6 (GeneID 57094)?
mean z-score: -1.2; z-score, replicate A: -1.13; z-score, replicate B: -1.26; z-score, replicate C: -1.22; outcome: inactive

For RPA2 (GeneID 6118), what does the deposit list?
mean z-score: -0.11; z-score, replicate A: -0.05; z-score, replicate B: -0.17; z-score, replicate C: -0.1; outcome: inactive

With LOC401295 (retired record) (GeneID 401295), what does the deposit list?
mean z-score: 0.14; z-score, replicate A: 0.17; z-score, replicate B: 0.27; z-score, replicate C: -0.01; outcome: inactive

Which result is listed for LOC400144 (retired record) (GeneID 400144)?
mean z-score: 0.87; z-score, replicate A: 0.82; z-score, replicate B: 0.93; z-score, replicate C: 0.85; outcome: inactive

For LOC401937 (retired record) (GeneID 401937), what was measured?
mean z-score: -0.25; z-score, replicate A: -0.48; z-score, replicate B: -0.04; z-score, replicate C: -0.23; outcome: inactive

With OR10C1 (GeneID 442194), what does the deposit list?
mean z-score: 1.84; z-score, replicate A: 1.22; z-score, replicate B: 2.38; z-score, replicate C: 1.91; outcome: inactive

What did the screen give for RAG2 (GeneID 5897)?
mean z-score: 0.17; z-score, replicate A: 0.28; z-score, replicate B: 0.1; z-score, replicate C: 0.13; outcome: inactive

What did the screen give for LOC401579 (retired record) (GeneID 401579)?
mean z-score: 0.99; z-score, replicate A: 0.91; z-score, replicate B: 0.92; z-score, replicate C: 1.14; outcome: inactive

With MND1 (GeneID 84057), how do the results read?
mean z-score: 0.41; z-score, replicate A: 0.12; z-score, replicate B: 0.65; z-score, replicate C: 0.45; outcome: inactive

With RBMXL3 (GeneID 139804), what does the deposit list?
mean z-score: 1.25; z-score, replicate A: 0.73; z-score, replicate B: 1.43; z-score, replicate C: 1.58; outcome: inactive

For CDCA5 (GeneID 113130) #1, how do the results read?
mean z-score: -1.89; z-score, replicate A: -1.84; z-score, replicate B: -1.92; z-score, replicate C: -1.93; outcome: inactive

What is on record for CDCA5 (GeneID 113130) #2?
mean z-score: 0.31; z-score, replicate A: -0.26; z-score, replicate B: 0.56; z-score, replicate C: 0.63; outcome: inactive

What did the screen give for TYR (GeneID 7299)?
mean z-score: -1.33; z-score, replicate A: -1.78; z-score, replicate B: -0.99; z-score, replicate C: -1.23; outcome: inactive

What did the screen give for PCDHGA11 (GeneID 56105)?
mean z-score: -0.86; z-score, replicate A: -1.1; z-score, replicate B: -1.16; z-score, replicate C: -0.33; outcome: inactive

A few values from above:
PHACTR1 (GeneID 221692), outcome = inactive
For “mean z-score”, LOC400144 (retired record) (GeneID 400144) is entered as 0.87
